Pooled drug test results. Numbers come from NIAID ChemDB, via PubChem.

All rows: tests in culture; organism: HIV-1

Lines come from different laboratories, so protocols vary.

structure,method,cell line,measure,strain or isolate,changes,value
CCc1cc(NCc2nc3c(Cl)ccc(Cl)c3o2)c(=O)[nH]c1C,antigen,MT-4,EC90,MF,-,0.1 µM
C=C(C)C(O)Cc1cc(C(C)=O)ccc1O,p24 / syncytia,C8166,EC50,-,-,>50 µg/mL
O=c1c2cccn2c2ccccc2n1CCNC(=S)Nc1ccc(Br)cn1,cytopathic effect / MTT,CEM + CEM-SS,EC50,IIIB,-,0.013 µM
CCCN(CCC)C(=O)OCOP(=O)(CO[C@H](C)Cn1cnc2c(N)ncnc21)OCOC(=O)N(CCC)CCC,cytopathic effect / MTT,MT-2,EC50,IIIB,-,3 µM
Cc1cc(Br)cc(S(=O)(=O)c2cccc(N)c2C#N)c1,β-galactosidase,HeLa + HELA CD4+,EC50,-,RT-K103N V108I,4.8 µM
C=C(C)C1Oc2ccc(C(C)=O)cc2C1OC(C)=O,p24 / syncytia,C8166,EC50,-,-,>50 µg/mL
COC(=O)C(C)CNP(=O)(OC[C@@H]1CC[C@H](n2cc(C)c(=O)[nH]c2=O)O1)Oc1ccc(OC)cc1,RT activity,CEM(TK-) + CEM TK-,EC50,-,-,19.7 µM
Cc1ccnc2c1NC(=O)c1cccnc1N2C1CC1,-,PBMC,EC50,LAI,-,<0.01 µM
Nc1ccn([C@H]2CC[C@@H](CO)O2)c(=O)n1,plaque count,HT4 + HT4 LacZ-1,EC50,HXB2,RT-Y181C M184V,0.87 µM
CC(C)(C)NC(=O)[C@@H]1C[C@@H]2CCCC[C@@H]2CN1C[C@@H](O)[C@H](Cc1ccccc1)NC(=O)[C@H](CC(N)=O)NC(=O)c1ccc2ccccc2n1,RT activity,MT-2,EC50,RF,-,0.0134 µM
CN1CCN(CCCNCCc2ccc(CCNCCCN3CCN(C)CC3)cc2)CC1,MTT,MT-4,EC50,-,-,>81.02 µM
CC(C)=CCN1Cc2cc(Cl)cc3[nH]c(=S)n(c23)C[C@@H]1C,cytopathic effect / XTT,CEM + CEM-SS,EC50,SK1,-,0.062 µM
CCc1cc(NCc2nc3c(Cl)ccc(Cl)c3o2)c(=O)[nH]c1C,p24,Macrophage + Monocytes/macrophages,EC50,BaL,-,0.05 µM
Cc1cn([C@H]2C[C@H](N=[N+]=[N-])[C@@H](CO)O2)c(=O)[nH]c1=O,XTT,CEM + CEM-SS,EC50,NL4-3(RT-4XAZT+Y181C),RT-D67N K70R Y181C T215Y K219Q,0.04 µM
CC(C)c1nc(CN(C)C(=O)N[C@H](C(=O)N[C@@H](Cc2ccccc2)C[C@H](O)[C@H](Cc2ccccc2)NC(=O)OCc2cncs2)C(C)C)cs1,p24,PBMC,EC50,006,-,0.0431 µM
Cc1cc(C)c(-n2nnnc2SCC(=O)Nc2ccc(C(N)=O)cc2Cl)c(C)c1,p24,MT-4,EC50,-,-,<10 µM
CC(=O)c1ccc(O)c(CC(O)C(C)(C)O)c1,p24 / syncytia,C8166,EC50,-,-,>8 µg/mL
Cc1cccc(C)c1OCC(=O)N[C@@H](Cc1ccccc1)[C@@H](O)C[C@H](Cc1ccccc1)NC(=O)[C@H](C(C)C)N1CCCNC1=O,luciferase,HEK 293 + 293T,EC50,NL4-3,PR-L10I M36I M46I I54V L63P A71V I84V L90M,0.42 µM
Nc1nc(=O)n([C@@H]2CS[C@H](CO)O2)cc1F,plaque count,HT4 + HT4 LacZ-1,EC50,RTMC (RT D67N K70R T215F K219Q),RT-D67N K70R T215F K219Q,0.64 µM
COc1ccc(S(=O)(=O)N(CC(C)C)C[C@@H](O)[C@H](Cc2ccc(OC)c(Cl)c2)NC(=O)O[C@H]2CO[C@H]3OCC[C@H]32)cc1,p24 / luminescence,PBMC,EC50,NL4-3,L10F V32I M46I I54M A71V I84V,0.0021 µM
COC(=O)C(C)CNP(=O)(OC[C@@H]1CC[C@H](n2cc(C)c(=O)[nH]c2=O)O1)Oc1ccccc1,RT activity,CEM(TK-) + CEM TK-,EC50,-,-,7.5 µM
Cc1cc(Cl)cc(S(=O)(=O)c2cccc(N)c2C#N)c1,β-galactosidase,HeLa + HELA CD4+,EC50,-,RT-Y181C,10 µM
Cc1cc(C)c(-n2nnnc2SCC(=O)Nc2cccc(Cl)c2F)c(C)c1,p24,MT-4,EC50,-,-,<10 µM
O=C(O)P(=O)(O)O,p24,H9,EC50,-,-,50 µM
CNc1nc(Nc2c(C)cc(C)cc2C)nc(NC2CCN(Cc3ccc(C(N)=O)cc3)CC2)n1,MTT,MT-4,EC50,IIIB,Resistant strain (K103N + Y181C),0.56 µM
Cc1cc(C)c(-n2nnnc2OCC(=O)Nc2ccccc2Cl)c(C)c1,p24,MT-4,EC50,-,-,<10 µM
COC(=O)C(C)CNP(=O)(OC[C@@H]1CC[C@H](n2cc(C)c(=O)[nH]c2=O)O1)Oc1ccc(Br)cc1,RT activity,PBMC,EC50,-,-,1.2 µM
c1cc(CCNCCN2CCOCC2)ccc1CCNCCN1CCOCC1,MTT,MT-4,EC50,-,-,>320.1 µM
Cc1cn([C@H]2C[C@H](N=[N+]=[N-])[C@@H](CO)O2)c(=O)[nH]c1=O,p24,Macrophage + Monocytes/macrophages,EC50,BaL,-,0.002 µM
CC(Sc1nnnn1-c1cccc2ccccc12)C(=O)Nc1ccccc1Cl,p24,MT-4,EC95,-,-,<10 µM
Cc1cc(C)c(Oc2ccc(N)c(NC3CCN(Cc4ccc(S(N)(=O)=O)cc4)CC3)n2)c(C)c1,MTT,MT-4,EC50,IIIB,-,0.112 µg/mL
C[C@H](Cn1cnc2c(N)ncnc21)OCP(=O)(O)O,p24,PBMC,EC50,HXB2,-,1.23 µM
Cc1cc(C#N)cc(C)c1Oc1ccc([N+](=O)[O-])c(NC2CCN(Cc3ccncc3)CC2)n1,MTT,MT-4,EC50,IIIB,-,0.039 µg/mL
CO[P@](=O)(c1cc(C)cc(/C=C/C#N)c1)c1c(C(N)=O)[nH]c2ccc(Cl)cc12,-,MT-4,EC50,BH10,Y181C,0.0015 µM
Cc1cn([C@H]2C[C@H](N=[N+]=[N-])[C@@H](CO)O2)c(=O)[nH]c1=O,-,PBMC,EC50,LAI,-,<0.01 µM
Cc1cccc(C)c1-n1nnnc1SCC(=O)Nc1ccccc1[N+](=O)[O-],p24,MT-4,EC95,-,-,<10 µM
COc1c(C)c2c(c(O)c1C/C=C(\C)CCC(=O)O)C(=O)OC2,p24,PBMC,EC50,MDR (RT D67N K70R T215Y K219Q) RTMCY,RT-D67N K70R T215Y K219Q,0.31 µM
O=C(CSc1nnnn1-c1cccc2ccccc12)Nc1ccccc1F,p24,MT-4,EC50,-,-,<10 µM
COc1ccc(/C=C/NC(=O)Nc2ccc(Cl)cn2)cc1OC,cytopathic effect / MTT,CEM + CEM-SS,EC50,IIIB,-,4.8 µM
COC(=O)C(C)CNP(=O)(OC[C@@H]1CC[C@H](n2cc(C)c(=O)[nH]c2=O)O1)Oc1ccc([N+](=O)[O-])cc1,RT activity,PBMC,EC50,-,-,2 µM
Cc1cn([C@H]2C[C@H](N=[N+]=[N-])[C@@H](CO)O2)c(=O)[nH]c1=O,cytopathic effect / MTT,CEM + CEM-SS,EC50,IIIB,-,0.0019 µM
CC(C)CN(C[C@@H](O)[C@H](Cc1ccccc1)NC(=O)O[C@H]1CCOC1)S(=O)(=O)c1ccc(N)cc1,RT activity,CEM + CEM-SS,EC50,RF,-,0.0166 µM
Cc1ccnc2c1NC(=O)c1cccnc1N2C1CC1,XTT,CEM + CEM-SS,EC50,NL4-3(RT-4XAZT),RT-D67N K70R T215Y K219Q,0.02 µM
Cc1cc(O)cc(S(=O)(=O)c2cccc(N)c2C#N)c1,β-galactosidase,HeLa + HELA CD4+,EC50,-,RT-Y181C,36 µM
O=C(CSc1nnnn1-c1cccc(Cl)c1)Nc1ccccc1Cl,p24,MT-4,EC95,-,-,<10 µM
O=c1[nH]cnc2c1ncn2[C@H]1CC[C@@H](CO)O1,p24,Macrophage + Monocytes/macrophages,EC50,BaL,-,0.12 µM
O=C(Cc1ccc(CC(=O)NCCCN2CCCCC2)cc1)NCCCN1CCCCC1,MTT,MT-4,EC50,-,-,>282 µM
Cc1cc(C#N)cc(C)c1Oc1ccc(N)c(NC2CCN(Cc3ccc(S(C)(=O)=O)cc3)CC2)n1,MTT,MT-4,EC50,IIIB,Resistant strain (K103N + Y181C),0.99 µM
Nc1nc(=O)n([C@@H]2CS[C@H](CO)O2)cc1F,cytopathic effect,MT-2,EC50,IIIB,-,0.3 µM
CC(C)=CCN1Cc2cc(Cl)cc3[nH]c(=S)n(c23)C[C@@H]1C,-,PBMC,EC50,VAU (RT-A98G),RT-A98G,0.08 µM
CC1CCCCN1CCCNCc1ccc(CC(=O)NCCCN2CCOCC2)cc1,MTT,MT-4,EC50,-,-,6.72 µM
Cc1cc(C)c(-n2nnnc2SCC(=O)Nc2cccc(Cl)c2Cl)c(C)c1,p24,MT-4,EC95,-,-,<10 µM
O=C(Cc1ccc(CC(=O)NCCCn2ccnc2)cc1)NCCCn1ccnc1,MTT,MT-4,EC50,-,-,>306 µM
O=c1cnc2ccccc2n1CCNC(=S)Nc1ccc(Br)cn1,cytopathic effect / MTT,C8166,EC50,IIIB,-,>2 µM
c1cn(CCCNCCc2ccc(CCNCCCn3ccnc3)cc2)cn1,MTT,MT-4,EC50,-,-,>328 µM
Cc1cn([C@H]2C[C@H](N=[N+]=[N-])[C@@H](CO)O2)c(=O)[nH]c1=O,β-galactosidase,MAGI,EC50,-,-,<5 µg/mL
CCCc1cc(=O)oc2c3c(c4c(c12)OC(C)(C)C=C4)O[C@H](C)[C@@H](C)[C@@H]3O,RT activity,U-937,EC50,IIIB,-,0.2 µM
O=C1c2ccncc2C(=O)N1CCNC(=S)Nc1ccc(Br)cn1,cytopathic effect / MTT,C8166,EC50,IIIB,-,>2 µM
CCCc1cc(=O)oc2c3c(c4c(c12)OC(C)(C)C=C4)O[C@@H](C)[C@H](C)[C@@H]3O,XTT,CEM + CEM-SS,EC50,Dihydrocostatolide-resistant (RT-L100I),RT-L100I,>27 µM
COc1cc(C(F)(F)F)cc(S(=O)(=O)c2cccc(N)c2C#N)c1,β-galactosidase,HeLa + HELA CD4+,EC50,-,RT-L100I K103N,19 µM

The last 3 rows once more:

structure	method	cell line	measure	strain or isolate	changes	value
O=C1c2ccncc2C(=O)N1CCNC(=S)Nc1ccc(Br)cn1	cytopathic effect / MTT	C8166	EC50	IIIB	-	>2 µM
CCCc1cc(=O)oc2c3c(c4c(c12)OC(C)(C)C=C4)O[C@@H](C)[C@H](C)[C@@H]3O	XTT	CEM + CEM-SS	EC50	Dihydrocostatolide-resistant (RT-L100I)	RT-L100I	>27 µM
COc1cc(C(F)(F)F)cc(S(=O)(=O)c2cccc(N)c2C#N)c1	β-galactosidase	HeLa + HELA CD4+	EC50	-	RT-L100I K103N	19 µM

ECn is the concentration giving n% inhibition of infection, replication or growth. Blank or dashed fields: not listed here.